Anti-infective test results gathered from many reports (values: NIAID ChemDB through PubChem).

Shared fields: target-level tests

An empty or dashed field is not shown. Lines come from different laboratories, so protocols vary. ICn: concentration for n% inhibition. Inhibition is in % at the dose shown (toxicity tests: loss of growth or viability). Two numbers with a dash give a range or band.

smiles	dose	agent	read-out	target	strain	mutations	read by	value
CC(C)(C)Cc1cn2ccn(Cc3cccc(Cl)c3)c(=O)c2c(O)c1=O		HIV-1	IC50	Integrase			ELISA	0.01–0.1 µM
CC(C)(C)c1ccc(-n2nnnc2SCC(=O)Nc2ccc(NC(=O)CCC(=O)O)cc2Cl)c(Cl)c1		HIV-1	IC50	Reverse transcriptase		RT-K103 Y181C	PicoGreen / fluorescence	<1 µM
Cc1cccc(C)c1-c1cn2ccn(Cc3cccc(Cl)c3)c(=O)c2c(O)c1=O		HIV-1	IC50	Integrase			ELISA	0.01–0.1 µM
CNOC(=O)CNC(=O)NCCC(C)(C)CN(C[C@@H](O)[C@H](Cc1ccccc1)NC(=O)O[C@H]1CO[C@H]2OCC[C@H]21)S(=O)(=O)c1ccc(OC)cc1		HIV-1	Ki	Protease			fluorescence	<0.001 µM
CC(C)(C#Cc1ccc(NC(=O)CSc2nnnn2-c2ccc(C3CC3)cc2Cl)c(Cl)c1)NC(=O)C1CC1		HIV-1	IC50	Reverse transcriptase	WT		PicoGreen / fluorescence	<1 µM
CC[C@@H](C)[C@H](NC(=O)[C@@H]1CCCN1C(=O)[C@@H](O)[C@H](CC1CCCCC1)NC(=O)[C@H](CSC)NC(=O)CCc1ccccc1)C(=O)N[C@H](C(N)=O)C(C)C	5 µM	HIV-1	inhibition	Protease				9.1%
Nc1ccn([C@@H]2CS[C@H](COP(=O)(O)OP(=O)(O)OP(=O)(O)O)O2)c(=O)n1		HIV	Ki	Reverse transcriptase		RT-Q151M K103N	radiometric	0.159 µM
CC(C)(C)NC(=O)[C@@H]1CSCN1C(=O)[C@@H](O)[C@H](Cc1ccccc1)NC(=O)[C@@H](NC(=O)COc1cccc2ccccc12)C(C)(C)C	0.05 µM	HIV-1	inhibition	Protease				77.4%
CC(C)(CCCCNC(=S)NCc1ccco1)CN(C[C@@H](O)[C@H](Cc1ccccc1)NC(=O)O[C@H]1CO[C@H]2OCC[C@H]21)S(=O)(=O)c1ccc2c(c1)OCO2		HIV-1	Ki	Protease			fluorescence	<0.001 µM
CC(C)(C)c1ccc(-n2nnnc2SCC(=O)Nc2ccc(C#CCN3CCOCC3)cc2Cl)c(Cl)c1		HIV-1	IC50	Reverse transcriptase		RT-K103 Y181C	PicoGreen / fluorescence	<1 µM
CC[C@@H](C)[C@H](NC(=O)[C@@H]1CCCN1C(=O)[C@@H](O)[C@H](Cc1ccccc1)NC(=O)CCc1ccccc1)C(=O)N[C@H](C(N)=O)C(C)C		HIV-1	IC50	Protease				>5 µM
COC(=O)NCC(=O)NCCCC(C)(C)CN(C[C@@H](O)[C@H](Cc1ccccc1)NC(=O)O[C@H]1CO[C@H]2OCC[C@H]21)S(=O)(=O)c1ccc2c(c1)OCO2		HIV-1	Ki	Protease			fluorescence	<0.001 µM
CC(C)(C#Cc1ccc(NC(=O)CSc2nnnn2-c2ccc(CC3CC3)cc2Cl)c(Cl)c1)C(=O)O		HIV-1	IC50	Reverse transcriptase		RT-K103 Y181C	PicoGreen / fluorescence	<1 µM
CC(C)(C)NC(=O)C1CCCN1C(=O)[C@@H](O)[C@H](Cc1ccccc1)NC(=O)[C@H](CC(N)=O)NC(=O)OC(C)(C)C	5 µM	HIV-1	inhibition	Protease				31.2%
Cc1cc(NC(=O)c2ccc(NC(=O)CSc3nnnn3-c3ccc(C(C)(C)C)cc3Cl)c(Cl)c2)ccc1/C=C/C(=O)O		HIV-1	IC50	Reverse transcriptase	WT		PicoGreen / fluorescence	<1 µM
CC(C)(C)NC(=O)[C@@H]1CSCN1C(=O)[C@@H](O)[C@H](Cc1ccccc1)NC(=O)[C@H](CS(C)(=O)=O)NC(=O)COc1cccc2ccccc12	0.05 µM	HIV-1	inhibition	Protease				93.9%
CC(C)=CCN1Cc2cccc3[nH]c(=S)n(c23)C[C@@H]1C		HIV	IC50	Reverse transcriptase		RT-V60T	nucleotide incorporation	1.84 µM
CC(C)(C#Cc1ccc(NC(=O)CSc2nnnn2-c2ccc(C(C)(C)C)cc2Cl)c(Cl)c1)OCC(=O)Nc1ccon1		HIV-1	IC50	Reverse transcriptase	WT		PicoGreen / fluorescence	<1 µM
CC(C)(CCCCCNC(=O)C1CCC1)CN(C[C@@H](O)[C@H](Cc1ccccc1)NC(=O)O[C@H]1CO[C@H]2OCC[C@H]21)S(=O)(=O)c1ccc2c(c1)OCO2		HIV-1	Ki	Protease			fluorescence	<0.001 µM
CS(=O)(=O)C[C@H](NC(=O)COc1cccc2ccccc12)C(=O)N[C@@H](Cc1ccccc1)[C@H](O)C(=O)N1CCC[C@H]1C(=O)Nc1ccc(O)cc1		HIV-1	IC50	Protease				<5 µM
CC(C)(C)c1ccc(-n2nnnc2SCC(=O)Nc2ccc(C#CCOC(N)=O)cc2Cl)c(Cl)c1		HIV-1	IC50	Reverse transcriptase		RT-K103 Y181C	PicoGreen / fluorescence	<1 µM
COC(=O)CCC(=O)NCCCCC(C)(C)CN(C[C@@H](O)[C@H](Cc1ccccc1)NC(=O)O[C@H]1CO[C@H]2OCC[C@H]21)S(=O)(=O)c1ccc2c(c1)OCO2		HIV-1	Ki	Protease			fluorescence	<0.001 µM
CC(C)(C)c1ccc(-n2nnnc2SCC(=O)Nc2ccc(-c3ccc(C(=O)O)s3)cc2Cl)c(Cl)c1		HIV-1	IC50	Reverse transcriptase	WT		PicoGreen / fluorescence	<1 µM
O=C1c2c(O)c(=O)c(Br)cn2CC(O)N1Cc1cccc(Cl)c1		HIV-1	IC50	Integrase			ELISA	0.1–1 µM
CC(C)OC(=O)NCCC(C)(C)CN(C[C@@H](O)[C@H](Cc1ccccc1)NC(=O)O[C@H]1CO[C@H]2OCC[C@H]21)S(=O)(=O)c1ccc2c(c1)OCO2		HIV-1	Ki	Protease			fluorescence	<0.001 µM

A second listing of 2 rows from above:

smiles	dose	agent	read-out	target	strain	mutations	read by	value
CC(C)(C)c1ccc(-n2nnnc2SCC(=O)Nc2ccc(NC(=O)CCC(=O)O)cc2Cl)c(Cl)c1		HIV-1	IC50	Reverse transcriptase		RT-K103 Y181C	PicoGreen / fluorescence	<1 µM
CC(C)(C)NC(=O)[C@@H]1CSCN1C(=O)[C@@H](O)[C@H](Cc1ccccc1)NC(=O)[C@@H](NC(=O)COc1cccc2ccccc12)C(C)(C)C	0.05 µM	HIV-1	inhibition	Protease				77.4%